The values below are quoted from earlier work in patent US20020195406A1, “Compositions and methods for disinfecting small diameter water lines” (priority 2001, published 2002).

This series relates to dental unit water bacteria. The settings on record: weekly treatment with 5000 ppm chlorine (diluted bleach) plus 3 ppm chlorinated water in the unit; cited from earlier work.

Turning to chlorine, the bacterial level attained is reported as less than 200 cfu/ml.
